Compound potency records, mixed from different reports. Data source: NIAID ChemDB in PubChem.

Shared fields: growth or infection tests; organism: Mycobacterium avium

An empty or dashed field is not shown. ECn: concentration that inhibits the pathogen or its effect by n%. MIC50, MIC90 and the like: level of inhibition, or share of isolates inhibited. Conditions beyond the fields shown may differ between rows.

compound | read-out | setting | strain | method | value
CC(=O)NC[C@H]1CN(c2ccc(N3CCS(=O)(=O)CC3)c(F)c2)C(=O)O1 | MIC |  | LPR |  | 4 µg/mL
N/C(=N\N=C\c1nc2ccccc2o1)c1cnccn1 | MIC |  |  |  | >16 µg/mL
O=c1oc2ccc(F)cc2c(=S)n1-c1cccc(F)c1 | MIC | 14 d | MY330/88 |  | 16 µM
Cc1ccc2c(=O)n(-c3ccc(N(C)C)cc3)c(=O)oc2c1 | MIC |  | CNCTC MY330/88 |  | 62 µM
COC(=O)c1cnccn1 | MIC |  | ATCC49601 |  | >256 µg/mL
c1ccc(CCSc2ncnc3ccccc23)cc1 | MIC |  | CNCTC MY80/72 |  | 63 µM
O=c1oc2ccc(Br)cc2c(=S)n1-c1cccc(F)c1 | MIC | 21 d | MY330/88 |  | 32 µM
CCN(CC)C(=O)COc1cc2c(O)c3c(O)c(C)c4c(c13)C(=O)[C@@](C)(O/C=C/[C@H](OC)[C@@H](C)[C@@H](OC(C)=O)[C@H](C)[C@H](O)[C@H](C)[C@@H](O)[C@@H](C)/C=C/C=C(/C)C(=O)N2)O4 | MIC |  |  |  | 10 µg/mL
C=C1CC[C@@H](O)[C@]2(C)CC[C@H]3C(=C)C(=O)O[C@@H]3[C@@H]12 | MIC |  |  |  | >128 µg/mL
CCCCCCCCC(CC)OC(=O)c1cnc(Cl)cn1 | MIC |  | ATCC49601 |  | 256 µg/mL
[N-]=[N+]=NC[C@H]1O[C@H](O[C@H]2O[C@H](CN=[N+]=[N-])[C@@H](O)[C@H](O)[C@H]2O)[C@H](O)[C@@H](O)[C@@H]1O | MIC |  | NJ3404 |  | >128 µg/mL
CCn1cc(C(=O)O)c(=O)c2cc(F)c(N3CCN(C)CC3)cc21 | MIC |  | 101 |  | 64 µg/mL
O=[N+]([O-])c1cc(Sc2nc3ccc(I)cc3[nH]2)cc([N+](=O)[O-])c1 | MIC |  | MY330/88 |  | 32 µM
C=C1C(=O)O[C@@H]2/C=C(\C)CC[C@H]3OC3(C)CC[C@@H]12 | MIC |  |  |  | 128 µg/mL
O=[N+]([O-])c1cc(Sc2nc3c(Cl)cc(Cl)cc3[nH]2)cc([N+](=O)[O-])c1 | MIC |  | MY330/88 |  | 62.5 µM
Cc1ccc2oc(=S)n(-c3ccc(F)cc3)c(=S)c2c1 | MIC | 21 d | MY330/88 |  | 4 µM
NC[C@H]1O[C@H](O[C@H]2O[C@H](CN)[C@@H](O)[C@H](O)[C@H]2O)[C@H](O)[C@@H](O)[C@@H]1O | MIC |  | NJ168 |  | >128 µg/mL
Cc1ccc2oc(=O)n(-c3ccc(Cl)c(Cl)c3)c(=S)c2c1 | MIC | 21 d | MY330/88 |  | 16 µM
Cc1ccc(CS/C(N)=N/N=C/c2ccccc2)cc1 | MIC | 21 d | ATCC 25291 | broth dilution | 32 µM
CCCCC(CC)CN(CC(CC)CCCC)C[C@H]1O[C@H](O[C@H]2O[C@H](CN(CC(CC)CCCC)CC(CC)CCCC)[C@@H](O)[C@H](O)[C@H]2O)[C@H](O)[C@@H](O)[C@@H]1O | MIC |  | NJ3404 |  | 64 µg/mL
S=c1oc2ccc(Br)cc2c(=S)n1-c1ccc(Cl)c(Cl)c1 | MIC | 21 d | MY330/88 |  | 62.5 µM
CC[C@H]1OC(=O)[C@H](C)[C@@H](O[C@H]2C[C@@](C)(OC)[C@@H](O)[C@H](C)O2)[C@H](C)[C@@H](O[C@@H]2O[C@H](C)C[C@H](N(C)C)[C@H]2O)[C@](C)(OC)C[C@@H](C)C(=O)[C@H](C)[C@@H](O)[C@]1(C)O | EC50 |  |  |  | <6.25 µg/mL
CCCCSc1ncnc2ccccc12 | MIC |  | CNCTC MY80/72 |  | 32 µM
C[C@H]1NCc2cc(-c3ccc4c(=O)c(C(=O)O)cn(C5CC5)c4c3OC(F)F)ccc21 | MIC |  | 1 isolates |  | 16 µg/mL
CCCCC(CC)CNC[C@H]1O[C@H](O[C@H]2O[C@H](CO)[C@@H](O)[C@H](O)[C@H]2O)[C@H](O)[C@@H](O)[C@@H]1O | MIC |  | NJ168 |  | >128 µg/mL
N/C(=N\NC(CC(=O)c1ccc(Cl)c(Cl)c1)c1cccnc1)c1ccccn1 | MIC |  | 485 |  | 80 µg/mL
O=[N+]([O-])c1cc(Sc2nc3ccc(Br)cc3[nH]2)cc([N+](=O)[O-])c1 | MIC |  | MY330/88 |  | 32 µM
NC(=O)c1ncc(C(N)=S)nc1Nc1ccccc1 | MIC |  | 80/72 |  | 100 µg/mL
CCCCCCC(C)(CCCC)OC(=O)c1cnc(Cl)cn1 | MIC |  | ATCC49601 |  | >256 µg/mL
C=C1CC[C@@H](O)[C@]2(C)CC[C@@H](C(=C)CO)[C@H](O)[C@@H]12 | MIC |  |  |  | >128 µg/mL
CC(C)Sc1ncnc2ccccc12 | MIC |  | CNCTC MY66/72 |  | 32 µM
Clc1ccc(/C(Cn2ccnc2)=N\OCc2ccccc2)c(Cl)c1 | MIC |  | CIP103317 |  | >16 µg/mL
FC(F)(F)C(F)(F)C(F)(F)c1nc2c(Br)c(Br)c(Br)c(Br)c2[nH]1 | MIC |  | MY330/88 |  | 62.5 µM
CCC(C)c1ccc(NC(=O)CCC(=O)Nc2ccc(C(C)CC)cc2)cc1 | MIC |  | NO 80/72 |  | 63 µM
CSC(SSC(S)C(N)=O)C(N)=O | MIC |  | 225 |  | 120 µM
FC(F)(F)c1nc2cc(Cl)c(Cl)cc2[nH]1 | MIC |  | MY330/88 |  | 62.5 µM
Fc1cccc(-n2c(=S)oc3ccc(F)cc3c2=S)c1 | MIC | 21 d | MY330/88 |  | 16 µM
N/C(=N\NC(CC(=O)c1ccccc1)c1ccccn1)c1ccccn1 | MIC |  | 485 |  | 80 µg/mL
CC(=O)NC[C@H]1CN(c2ccc3c(c2)Oc2ccccc2O3)C(=O)O1 | MIC90 |  |  | broth dilution / visual reading | >64 µg/mL
N/C(=N\N=C\c1cc2ccccc2s1)c1cnccn1 | MIC |  |  |  | >16 µg/mL
N#Cc1cnc(C(N)=O)c(NC2CCCCCC2)n1 | MIC |  | 80/72 |  | >100 µg/mL
N/C(=N\N=C\c1nc2cc(Cl)ccc2o1)c1cnccn1 | MIC |  |  |  | >16 µg/mL
CC(=O)/C(N=Nc1ccc(C(=O)N/N=C/c2ccc([N+](=O)[O-])o2)cc1)=C(/O)c1ccccc1 | EC50 |  |  |  | >12.5 µg/mL
CCCCCC(C)(CCCCC)OC(=O)c1cnc(Cl)cn1 | MIC |  | ATCC49601 |  | >64 µg/mL
O=c1oc2ccc(Cl)cc2c(=S)n1-c1cccc(F)c1 | MIC | 14 d | MY330/88 |  | 32 µM
CCCCCC(CC)OC(=O)c1cnc(Cl)cn1 | MIC |  | 101 |  | 64 µg/mL
N/C(=N\N=C\c1ccccc1O)SCc1cccc(Cl)c1 | MIC | 14 d | ATCC 25291 | broth dilution | 62.5 µM
CC1COc2c(N3CCN(C)CC3)c(F)cc3c(=O)c(C(=O)O)cn1c23 | MIC50 |  | 18 strains |  | 12.5 µg/mL
C=C1C(=O)O[C@H]2[C@H]1CCC1(C)O[C@@H]1CC[C@@]1(C)O[C@@H]21 | MIC |  |  |  | 128 µg/mL
O=C(CCC(=O)Nc1ccccc1)Nc1ccccc1 | MIC |  | NO 80/72 |  | 500 µM
N/C(=N\N=C\c1ccccc1)SCc1ccc(C(F)(F)F)cc1 | MIC | 21 d | ATCC 25291 | broth dilution | 62.5 µM
Cc1ccc(NC(=O)CCC(=O)Nc2ccc(C)c(C)c2)cc1C | MIC |  | NO 80/72 |  | >1000 µM
CCOC(=O)/C(N=Nc1ccc(C(=O)N/N=C/c2ccc([N+](=O)[O-])o2)cc1)=C(\C)O | MIC |  |  |  | >12.5 µg/mL
Cc1ccc2oc(/C=N/N=C(\N)c3ccccn3)nc2c1 | MIC |  |  |  | >16 µg/mL
CC(=O)NC[C@H]1CN(c2ccc(N3CCN(c4ccc([N+](=O)[O-])s4)CC3)c(F)c2)C(=O)O1 | MIC |  | ATCC 25291 |  | 0.25 µg/mL
CCCCCCSc1ncnc2ccccc12 | MIC |  | CNCTC MY66/72 |  | 63 µM
CCCCC(CC)CNC[C@H]1O[C@H](O[C@H]2O[C@H](CNCC(CC)CCCC)[C@@H](O)[C@H](O)[C@H]2O)[C@H](O)[C@@H](O)[C@@H]1O | MIC |  | NJ3404 |  | 64 µg/mL
O=C(CCC(=O)Nc1ccc(F)cc1)Nc1ccc(F)cc1 | MIC |  | NO 80/72 |  | 1000 µM
N/C(=N\N=C\c1ccncc1)c1cnccn1 | MIC |  |  |  | >16 µg/mL
N#Cc1ccc(-n2c(=O)oc3ccc(F)cc3c2=O)cc1 | MIC |  | CNCTC MY330/88 |  | 62.5 µM
C[C@H]1[C@H](C)CC[C@]2(C(=O)O)CC[C@]3(C)C(CC[C@@H]4[C@@]5(C)C[C@H](O)CC(C)(C)[C@@H]5CC[C@]43C)[C@H]12 | MIC |  |  | resazurin | 100 µg/mL
CCCCCCCCOC(=O)c1cnccn1 | MIC |  | ATCC 25291 |  | >200 µg/mL
Clc1ccc(/C(Cn2ccnc2)=N\OC/C=C/c2ccccc2)cc1 | MIC |  | CIP103317 |  | 8 µg/mL
O=[N+]([O-])c1ccc(Sc2nc3c(Br)cc(Br)cc3[nH]2)cc1 | MIC |  | MY330/88 |  | 16 µM
COc1ccc2c(N/N=C/c3ccc4c(c3)OCO4)cc(C)nc2c1 | MIC |  | ATCC 25291 |  | 3.13 µg/mL
COc1ccc2oc(=O)n(-c3cccc(F)c3)c(=O)c2c1 | MIC |  | CNCTC MY330/88 |  | 125 µM
CCCCCCCCCCCCCCCCCCN(C)C[C@H]1O[C@H](O[C@H]2O[C@H](CN(C)CCCCCCCCCCCCCCCCCC)[C@@H](O)[C@H](O)[C@H]2O)[C@H](O)[C@@H](O)[C@@H]1O | MIC |  | NJ3404 |  | >128 µg/mL
N/C(=N\N=C\c1nc2ccccc2o1)c1ccccn1 | MIC |  |  |  | >16 µg/mL
Fc1ccc(/C(Cn2ccnc2)=N\OCc2cccc3ccccc23)cc1 | MIC |  | CIP103317 |  | >16 µg/mL
CCCCCCCCCCCC(N)=NC[C@H]1O[C@H](O[C@H]2O[C@H](CN=C(N)CCCCCCCCCCC)[C@@H](O)[C@H](O)[C@H]2O)[C@H](O)[C@@H](O)[C@@H]1O | MIC |  | NJ3404 |  | 8 µg/mL
OCNC(=S)c1cnccn1 | MBC |  | ATCC 25291 |  | 50 µg/mL
N/C(=N\N=C\c1ccccc1)SCc1ccc(Br)cc1 | MIC | 21 d | ATCC 25291 | broth dilution | 16 µM
CC[C@H]1OC(=O)[C@H](C)C(=O)[C@H](C)[C@@H](O[C@@H]2O[C@H](C)C[C@H](N(C)C)[C@H]2O)[C@](C)(OC)C[C@@H](C)C(=O)[C@H](C)[C@H]2N(NCCCc3ccnc4ccccc34)C(=O)O[C@]12C | MIC |  | Isolate 1110 |  | 10 µg/mL
c1ccc(CO/N=C(/Cn2ccnc2)c2ccccc2)cc1 | MIC |  | CIP103317 |  | 0.5 µg/mL
NC(=O)c1ncc(C(N)=S)nc1NC1CCCCCC1 | MIC |  | 80/72 |  | >100 µg/mL
CCCCCCCCCCCCN(CCCCCCCCCCCC)C[C@H]1O[C@H](O[C@H]2O[C@H](CN(CCCCCCCCCCCC)CCCCCCCCCCCC)[C@@H](O)[C@H](O)[C@H]2O)[C@H](O)[C@@H](O)[C@@H]1O | MIC |  | NJ168 |  | >128 µg/mL
CCOC(=O)c1ccc(-n2c(=O)oc3cc(Cl)ccc3c2=O)cc1 | MIC |  | CNCTC MY330/88 |  | 32 µM
Cc1cccc(C(=O)CC(N/N=C(\N)c2ccccn2)c2cccnc2)c1 | MIC |  | 485 |  | 16 µg/mL
N/C(=N\N=C\c1ccncc1)c1ccccn1 | MIC |  |  |  | >16 µg/mL

11 of the rows above, restated:

N/C(=N\N=C\c1cc2ccccc2s1)c1cnccn1 ; read-out: MIC ; value: >16 µg/mL
CC(=O)NC[C@H]1CN(c2ccc(N3CCS(=O)(=O)CC3)c(F)c2)C(=O)O1 ; read-out: MIC ; strain: LPR ; value: 4 µg/mL
C=C1C(=O)O[C@@H]2/C=C(\C)CC[C@H]3OC3(C)CC[C@@H]12 ; read-out: MIC ; value: 128 µg/mL
O=[N+]([O-])c1ccc(Sc2nc3c(Br)cc(Br)cc3[nH]2)cc1 ; read-out: MIC ; strain: MY330/88 ; value: 16 µM
N/C(=N\N=C\c1ccncc1)c1ccccn1 ; read-out: MIC ; value: >16 µg/mL
O=c1oc2ccc(Cl)cc2c(=S)n1-c1cccc(F)c1 ; read-out: MIC ; setting: 14 d ; strain: MY330/88 ; value: 32 µM
c1ccc(CCSc2ncnc3ccccc23)cc1 ; read-out: MIC ; strain: CNCTC MY80/72 ; value: 63 µM
CCCCCC(C)(CCCCC)OC(=O)c1cnc(Cl)cn1 ; read-out: MIC ; strain: ATCC49601 ; value: >64 µg/mL
CCn1cc(C(=O)O)c(=O)c2cc(F)c(N3CCN(C)CC3)cc21 ; read-out: MIC ; strain: 101 ; value: 64 µg/mL
FC(F)(F)c1nc2cc(Cl)c(Cl)cc2[nH]1 ; read-out: MIC ; strain: MY330/88 ; value: 62.5 µM
CCCCC(CC)CNC[C@H]1O[C@H](O[C@H]2O[C@H](CO)[C@@H](O)[C@H](O)[C@H]2O)[C@H](O)[C@@H](O)[C@@H]1O ; read-out: MIC ; strain: NJ168 ; value: >128 µg/mL